PubChem BioAssay AID555 (SRMLSC, 2006)
This is a selection; strong and weak results do not stand in their true shares. Calls of active or inactive are those of the source.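 Rule for the calls: active = ranked among the strongest by inhibition in the single 10 µM screen, a fixed top-ranked set picked for dose follow-up; inactive = the rest, inconclusive results apart.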

Each compound was assayed on mevalonate kinase [Streptococcus pneumoniae D39] (assay: S. pneumoniae MK inhibitors, primary screen, biochemical, PK/LDH-coupled NADH absorbance (AID 555)). Settings: purified MK, PK/LDH-coupled NADH absorbance 340 nm; at 10 µM; hits give high values.

| SMILES | inhibition |
| --- | --- |
| N#CC1(Nc2ccccc2)CCN(CCc2ccccc2)CC1 | inactive: 2% |
| COc1ccc(NC2CCN(CCc3ccccc3)CC2)c(OC)c1 | inactive: 1% |
| O=C(OC1CN2CCC1CC2)C1c2ccccc2Oc2ccccc21 (configuration not stated) | inactive: 12% |
| CCOc1ncccc1C(=O)NCC1(N2CCOCC2)CCCCC1 | inactive: 6% |
| CCC(CO)(C(=O)OC1CN2CCC1CC2)c1ccccc1 (configuration not stated) | inactive: 3% |
| Fc1ccccc1NC1CCN(Cc2ccccc2)CC1 | active: 45% |
| N/C(=N\O)c1c(N)no[n+]1[O-] | inactive: 11% |
